The values that follow come from US20250127801A1, “BRIDGED TRICYCLIC CARBAMOYLPYRIDONE COMPOUNDS AND USES THEREOF” (priority 2023, published 2025).

Usually EC50 stands for the midpoint of the concentration-response curve. Broadly, the CC50 is the concentration giving 50% cytotoxicity.

One data set concerns HIV-1 (IIIB). Put plainly: Antiviral assay in MT-4 cells. It is filed as cell-based. To be noted: read-out: MT4 EC50; HIV-1 (IIIB) replication in MT-4 cells, 5 days incubation, Cell Titer Glo.
In the next data set the test system is MT-4 cells. The data set is described as follows: Cytotoxicity assay in MT-4 cells. To be noted: read-out: MT4 CC50; uninfected MT-4 cells, 5 days incubation, Cell Titer Glo. (In general: In ATP-based viability assays light output follows the ATP content of the culture.)
Data set [1] can be described thus: Thermodynamic solubility assay. The conditions noted are these: 24-hour incubation, ambient temperature (22.3-23.8° C.), HPLC-UV 280 nm.

As for `CC1=NO[C@@]2(CC[C@H](C)N3C[C@H]2n2cc(C(=O)NCc4ccc(F)cc4F)c(=O)c(OC(=O)N(C)Cc4ccc(C(=O)O)cc4OP(=O)(O)O)c2C3=O)C1`, the EC50 in the data set with HIV-1 (IIIB) came out at 0.634 nM. The CC50 with MT-4 cells stood at 8480 nM. Also, the “Thermodynamic FaSSIF Solubility @ 24 h” value in data set [1] worked out at 5070 µg/mL.

As to `CC1=NO[C@@]2(CC[C@H](C)N3C[C@H]2n2cc(C(=O)NCc4ccc(F)cc4F)c(=O)c(OC(=O)N(C)C[C@@H]4CCCN4C(=O)OCOP(=O)(O)O)c2C3=O)C1`, the EC50 in the data set with HIV-1 (IIIB) came to 0.721 nM. The CC50 with MT-4 cells is 13000 nM.

On to `CC1=NO[C@@]2(CC[C@H](C)N3C[C@H]2n2cc(C(=O)NCc4ccc(F)cc4F)c(=O)c(OC(=O)N4CCOC[C@H]4CN(CC(=O)O)C(=O)OCOP(=O)(O)O)c2C3=O)C1`, for which, in the data set with HIV-1 (IIIB), the EC50 was determined as 1.42 nM. Moreover, in the data set with MT-4 cells, the CC50 was 8340 nM. Further, the “Thermodynamic FaSSIF Solubility @ 24 h” value in data set [1] amounted to 4725 µg/mL.

For the compound `CC1=NO[C@@]2(CC[C@H](C)N3C[C@H]2n2cc(C(=O)NCc4ccc(F)cc4F)c(=O)c(OC(=O)N(C)Cc4ccccc4OP(=O)(O)O)c2C3=O)C1`, the EC50 in the data set on HIV-1 (IIIB) amounted to 2.02 nM. The CC50 with MT-4 cells came to 17100 nM. Also, the “Thermodynamic FaSSIF Solubility @ 24 h” value in data set [1] amounted to 5555 µg/mL.

`CC1=NO[C@@]2(CC[C@H](C)N3C[C@H]2n2cc(C(=O)NCc4ccc(F)cc4F)c(=O)c(OC(=O)N4CCN(C)C[C@H]4CN(CC(=O)O)C(=O)OCOP(=O)(O)O)c2C3=O)C1`: the EC50 in the data set with HIV-1 (IIIB) was 2.38 nM. Besides, in the data set with MT-4 cells, the CC50 stood at 10600 nM.

Consider `CC1=NO[C@@]2(CC[C@H](C)N3C[C@H]2n2cc(C(=O)NCc4ccc(F)cc4F)c(=O)c(OC(=O)N(C)Cc4ccc(OP(=O)(O)O)cc4)c2C3=O)C1`, for which the “Thermodynamic FaSSIF Solubility @ 24 h” value in data set [1] stood at 5010 µg/mL.

Turning to `CC1=NO[C@@]2(CC[C@H](C)N3C[C@H]2n2cc(C(=O)NCc4ccc(F)cc4F)c(=O)c(OC(=O)N(C)Cc4cc(C(=O)O)ccc4OP(=O)(O)O)c2C3=O)C1`, in the data set on HIV-1 (IIIB), the EC50 worked out at 0.691 nM. Further, the CC50 in the data set with MT-4 cells is 9190 nM. For the same compound, in data set [1], the “Thermodynamic FaSSIF Solubility @ 24 h” value came out at 4740 µg/mL.

For the compound `CC1=NO[C@@]2(CC[C@H](C)N3C[C@H]2n2cc(C(=O)NCc4ccc(F)cc4F)c(=O)c(OC(=O)N4CCOC[C@@H]4CN(CC(=O)O)C(=O)OCOP(=O)(O)O)c2C3=O)C1`, in the data set on HIV-1 (IIIB), the EC50 is 0.992 nM. The CC50 with MT-4 cells was 10500 nM. Further, the “Thermodynamic FaSSIF Solubility @ 24 h” value in data set [1] came to 4900 µg/mL.

Consider `CC1=NO[C@@]2(CC[C@H](C)N3C[C@H]2n2cc(C(=O)NCc4ccc(F)cc4F)c(=O)c(OC(=O)N4CCN(C)C[C@@H]4CN(CC(=O)O)C(=O)OCOP(=O)(O)O)c2C3=O)C1`, for which, in the data set with HIV-1 (IIIB), the EC50 is 2.19 nM. In the data set on MT-4 cells, the CC50 was 11100 nM.

Consider `CC1=NO[C@@]2(CC[C@H](C)N3C[C@H]2n2cc(C(=O)NCc4ccc(F)cc4F)c(=O)c(OC(=O)N4CCOC[C@H]4COP(=O)(O)O)c2C3=O)C1`, for which the EC50 with HIV-1 (IIIB) turned out to be 23.3 nM.
